Experimental data from patent US9045563B2, “CXC chemokine receptor 4 (CXCR4) antagonistic polypeptide” (priority 2007, dated 2015).
Like-named read-outs stand apart in the source and are kept apart here.

Tested on: X4 tropic HIV-1 NL4-3
Settings: TZM-bl cells
Method: HIV inhibition test were performed by seeding 4000 P4-R5 MAGI cells (P. Charneau et al., J. Mol. Biol. 241: 651, 1994) in 100 μl of DMEM (10% FCS, 100 U/ml penicillin G, and 100 μg/ml streptomycin sulfate). P4-R5 cells are stably transfected with an LTR-lacZ cassette and upon successful infection by HIV-1 will express—galactosidase in a Tat-dependent manner, which can be detected in a chemiluminescence test. On the following day, aliquots of the fractions were added. Therefor the lyophilized fractions were resuspended in 80 μl of DMEM, and 25 μl each thereof was pipetted to P4-R5 cells, incubated at 37° C. for 1 hour and subsequently infected with HIV-1 NL4—3 (1 ng of p24 antigen). Virus stocks were obtained by transient infection of 293T cells with proviral DNA by the calcium phosphate method (CalPhos™ Mammalian Transfection Kit, Clontech). Virus stocks were harvested 48 hours post transfection, filtrated and used for infection. Three days post infection, β-galactosidase activity in infected P4-R5 cells was detected using GalScreen assay (TROPIX) as recommended by the manufacturer. Briefly, supernatant was removed, 40 μl of a 1:1 dilution of PBS/GalScreen+substrate was added, followed by incubation at room temperature for 30 min. Then 30 μl of the lysates were transferred into 96 well lumiplates. Subsequently, the lumines-cence was detected as relative light units per second in a luminometer (Berthold, ORION). From all measurements, the mean β-galactosidase background activity of non-infected control cells was subtracted. % infection values for each infection were calculated relative to no peptide containing controls (100%). […]
1.6 mg of fraction 31 from the 7th step in Example 1 was dissolved in 160 μl of DMEM. […] Three days later, infection rates were determined in a GalScreen assay (see Example 1). […]
Table 1. […] TZM-bl cells containing serial dilutions of synthetic peptides were infected with HIV-1 NL4-3 and infection rates were determined and calculated as described in example 1 and 2 at two days post infection. IC50 values were determined using the GraphPad Prism software package. […]

## CC(C)C[C@H](NC(=O)[C@@H](NC(=O)[C@@H]1CCCN1C(=O)[C@@H](NC(=O)[C@H](CO)NC(=O)[C@@H](NC(=O)[C@H](CCC(N)=O)NC(=O)[C@@H]1CCCN1C(=O)[C@@H](NC(=O)[C@H](CCCCN)NC(=O)[C@H](CCCCN)NC(=O)[C@@H](NC(=O)[C@H](Cc1ccc(O)cc1)NC(=O)[C@H](CCCNC(=N)N)NC(=O)[C@@H](N)C(C)C)[C@@H](C)O)C(C)C)C(C)C)[C@@H](C)O)[C@@H](C)O)C(=O)O [ALB409-423, VRYTKKVPQVSTPTL]
  antiviral activity against X4 tropic HIV-1 NL4-3 (words, SAR study): inactive
Listed as 409-423
  antiviral activity against X4 tropic HIV-1 NL4-3 (words, SAR study): severely impaired or abrogated antiviral activity
read-out: IC50 ± SEM, X4 tropic HIV-1 NL4-3, two days post infection, synthetic peptides
  IC50: > 100 µM
